We go through one compound from patent US20250090441A1 (THE UNIVERSITY OF HONG KONG, priority 2023, published 2025).

This data set in a line: Remineralizing effects on enamel, chemical pH cycling model (SEM-EDS, Micro-CT, XRD). The arrangement: species or system human. The note with it: 160 μM, after pH cycling. How it is done: Ten enamel slices were cut from extracted sound human molars. Each slice was separated into four blocks. A total of 40 enamel blocks were prepared. Then the surface of the enamel block was half-covered by an acid-resistant varnish. The exposed half was the experimental surface, and the varnished half was the internal control. Before use, all the enamel blocks were sterilized via autoclave (Niu et al. 2021d; Yu et al. 2018).
The pH-cycling procedure (16 h-demineralization at pH 4.5 and 8 h-remineralization at pH 7.0) was performed to enamel blocks for 8 days. The formula for demineralizing/remineralizing solution was employed from a previous study (Yu et al. 2018). […]
The structure of the enamel surface was examined using SEM (n=8 per group) (Niu et al. 2021d). […] The calcium to phosphorus molar ratio was calculated (Niu et al. 2022). The mineral loss and lesion depth on the enamel blocks were assessed using microcomputed tomography (Micro-CT) (1076, SkyScan, Antwerp, Belgium) (n=8 per group) (Niu et al. 2022). The diffraction patterns of the enamel blocks were evaluated using X-ray diffraction analysis (XRD) (Rigaku SmartLab 9 kW, […]) (n=2 per group) (Yu et al. 2018).

Molecules are shown by their SMILES.

On to `O=C(O)c1cc(O)c(O)c(O)c1` [GA, Gallic Acid], for which the “X-ray diffraction reflection peak at full width and half maximum” value came out at 0.342 °.
